# Literature values, collected in publication PMC7033585.
# By UniProt entry, the sequences of proteins in these tests, tags left out. Where a name states a change or a piece, a line headed by the entry shows the natural chain unless it says otherwise.
# UniProt H9T8G7: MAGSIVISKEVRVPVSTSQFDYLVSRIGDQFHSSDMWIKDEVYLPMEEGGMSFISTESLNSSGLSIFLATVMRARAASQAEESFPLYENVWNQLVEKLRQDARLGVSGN
# Target: CdiIIIBp1026b (Burkholderia pseudomallei) (UniProt H9T8G7)
# Conditions: cited from earlier work
substance,measurement,value
CdiA-CTIIBp1026b CT (from UniProt H9T8G4),Kd,21.1 nM
